Results of unrelated studies side by side (data: NIAID ChemDB).

Shared fields: tests on isolated targets; agent: HIV-1; target: Reverse transcriptase; read-out: fold resistance

Neighbouring rows are from separate reports.

compound | method | strain | changes | result
CCN1c2ncc(CCOc3ccc4c(c3)CN(C)C(=O)N4C)cc2C(=O)N(C)c2cccnc21 | nucleotide incorporation / radiometric | IIIB | RT-K103N Y181C | >2
CCc1cc(C2CC2)ccc1-n1c(Br)nnc1SCC(=O)Nc1ccc(C(=O)O)cc1Cl | nucleotide incorporation / radiometric |  | RT-Y188L | >2
Cc1cc(C)cc(S(=O)(=O)c2c(C(=O)NC(C)C(N)=O)[nH]c3ccc(Cl)cc23)c1 | nucleotide incorporation / radiometric |  | RT-Y181I | 43.3
NCCCCNc1nc(Cc2ccccc2)cc(=O)[nH]1 |  |  | RT-Y181L | >14.3
CCN1c2ncc(CCOc3cccc4c3CNC(=O)N4C)cc2C(=O)N(C)c2cccnc21 | nucleotide incorporation / radiometric | IIIB | RT-K103N Y181C | 1
CCN1c2ncc(CCOc3cccc4c3ccc[n+]4[O-])cc2C(=O)N(C)c2ccc(Cl)nc21 | nucleotide incorporation / radiometric |  | RT-K103N P225H | 1.7
CC(C)=CCOc1cc(NC(=S)c2ccoc2C)ccc1Cl |  |  | RT-L100I | 3.19
CCN1c2ncc(CCOc3ccc(-c4ccnc(C)c4)cc3C)cc2C(=O)N(C)c2cccnc21 | nucleotide incorporation / radiometric | IIIB | RT-K103N Y181C | 1
NC(=O)c1[nH]c2ccc(Cl)cc2c1S(=O)(=O)c1ccccc1 | nucleotide incorporation / radiometric |  | RT-Y188L | 1000
Cc1c(Cc2ccccc2)nc(NCCCCN)[nH]c1=O |  |  | RT-V179D | 1.01
CC(C)=CCOc1cc(NC(=S)c2ccsc2C)ccc1Cl |  |  | RT-P236L | 1.5
CCN1c2ncc(CCOc3ccc(-c4cccnc4)cc3C)cc2C(=O)N(C)c2cccnc21 | nucleotide incorporation / radiometric | IIIB | RT-K103N Y181C | 1
CCN1c2ncc(CCOc3cccc4c3COC(=O)N4)cc2C(=O)Nc2c(C)ccnc21 | nucleotide incorporation / radiometric | IIIB | RT-K103N Y181C | >2
O=c1cc(Cc2ccccc2)nc(NCCCCO)[nH]1 |  |  | RT-V179D | >2.44
CCc1cc(NCc2nc3c(C)ccc(C)c3o2)c(=O)[nH]c1C | nucleotide incorporation |  | RT-K103N Y181C | >6000
CCN1c2ncc(CCOc3cccc(-c4ccccc4)c3)cc2C(=O)N(C)c2cccnc21 | nucleotide incorporation / radiometric | IIIB | RT-K103N Y181C | >2
C=CCO/N=C/c1cc(NC(=S)c2ccoc2C)ccc1Cl | nucleotide incorporation / radiometric |  | RT-L100I | >8.33
CCN1c2ncc(CCOc3ccc(C(=O)O)c4ccccc34)cc2C(=O)Nc2c(C)ccnc21 | nucleotide incorporation / radiometric |  | RT-K103N Y181C | 1–10
CCN1c2ncc(CCOc3cccc4c3CNC4=O)cc2C(=O)N(C)c2cccnc21 | nucleotide incorporation / radiometric | IIIB | RT-K103N Y181C | >2
CCN1c2ncc(CCOc3ccc(C(=O)NS(C)(=O)=O)cc3C)cc2C(=O)N(C)c2cccnc21 | nucleotide incorporation / radiometric | IIIB | RT-K103N Y181C | >2
CCc1ccc(-n2c(Br)nnc2SCC(=O)Nc2ccc(C(=O)O)cc2Br)c2ccccc12 | nucleotide incorporation / radiometric |  | RT-Y188L | >1
CCN1c2ncc(CCOc3ccc(-c4ccc(F)c(CC(=O)O)c4)cc3C)cc2C(=O)N(C)c2cccnc21 | nucleotide incorporation / radiometric | IIIB | RT-K103N Y181C | 1
Cc1occc1C(=S)Nc1ccc(Cl)c(/C=N/OC(C)(C)C)c1 | nucleotide incorporation / radiometric |  | RT-P236L | 1.15
CCOC(=O)c1c(C(C)C)c(C#N)c(=N)n2ccccc12 |  |  | RT-Y181I | 1.42
Nc1nc2c(ncn2[C@H]2CC[C@@H](COP(=O)(O)OP(=O)(O)OP(=O)(O)O)O2)c(=O)[nH]1 | nucleotide incorporation |  | RT-Y181I | 0.833
CCN1c2ncc(CCOc3cccc4c3CN(Cc3ccncc3)C4=O)cc2C(=O)N(C)c2cccnc21 | nucleotide incorporation / radiometric | IIIB | RT-K103N Y181C | >1
CCN1c2ncc(CCOc3ccc(CC(=O)O)c4ccccc34)cc2C(=O)Nc2c(C)cc(Cl)nc21 | nucleotide incorporation / radiometric |  | RT-Y188L | >10
Cc1occc1C(=S)Nc1ccc(Cl)c(C(=O)OCC2CC2)c1 | nucleotide incorporation / radiometric |  | RT-Y181C | >8.33
COC(=O)[C@@H](NC(=O)c1ccc(NC(=O)CSc2nnc(Br)n2-c2ccc(C3CC3)c3ccccc23)c(Cl)c1)C(C)C | nucleotide incorporation / radiometric |  | RT-Y188L | >1
CCN1c2ncc(CCOc3ccc4cc(CC(=O)O)ccc4c3)cc2C(=O)N(C)c2cccnc21 | nucleotide incorporation / radiometric |  | RT-Y188L | >10
Cc1cc(S(N)(=O)=O)ccc1NC(=O)COc1ccccc1C(=O)c1cc(Cl)cc(C#N)c1 | fluorescence | NNRTI-resistant | RT-Y188L | 3.1
CCN1c2ncc(CCOc3cccc4c3CCNC4=O)cc2C(=O)N(C)c2cccnc21 | nucleotide incorporation / radiometric | IIIB | RT-K103N Y181C | >1
O=C(CSc1nnc(Br)n1-c1ccc(C2CC2)c2ccccc12)Nc1ccc(C(=O)O)cc1Cl | nucleotide incorporation / radiometric |  | RT-Y188L | >1
CCN1c2ncc(CCOc3cccc4c3CNC(=O)N4C)cc2C(=O)Nc2c(C)ccnc21 | nucleotide incorporation / radiometric | IIIB | RT-K103N Y181C | >2
CCN1c2ncc(CCOc3ccc(CCC(=O)O)c4ccccc34)cc2C(=O)Nc2c(C)cc(Cl)nc21 | nucleotide incorporation / radiometric |  | RT-Y188L | >10
CCc1ccc(-n2c(CF)nnc2SCC(=O)Nc2ccc(C(=O)O)cc2Cl)c2ccccc12 | nucleotide incorporation / radiometric |  | RT-Y188L | >2
CCN1c2ncc(CCOc3cccc4c3CCNC4=O)cc2C(=O)Nc2c(C)ccnc21 | nucleotide incorporation / radiometric | IIIB | RT-K103N Y181C | >2

Repeating the final 3 entries:

{"compound": "CCN1c2ncc(CCOc3ccc(CCC(=O)O)c4ccccc34)cc2C(=O)Nc2c(C)cc(Cl)nc21", "method": "nucleotide incorporation / radiometric", "changes": "RT-Y188L", "result": ">10"}
{"compound": "CCc1ccc(-n2c(CF)nnc2SCC(=O)Nc2ccc(C(=O)O)cc2Cl)c2ccccc12", "method": "nucleotide incorporation / radiometric", "changes": "RT-Y188L", "result": ">2"}
{"compound": "CCN1c2ncc(CCOc3cccc4c3CCNC4=O)cc2C(=O)Nc2c(C)ccnc21", "method": "nucleotide incorporation / radiometric", "strain": "IIIB", "changes": "RT-K103N Y181C", "result": ">2"}

Two numbers with a dash give a range or band. Blank or dashed fields: not listed here. Fold resistance: result on the changed form divided by that on wild type.